Pooled drug test results. Numbers come from NIAID ChemDB, via PubChem.

Shared fields: cytotoxicity tests; cells: DAUDI; endpoint: CC50

CCn is the concentration with n% toxicity to the cells.

structure	value
COC(=O)[C@H](C)NP(=O)(OC[C@H]1C/C1=C/n1cnc2c(=O)[nH]c(N)nc21)Oc1ccccc1	>103 µM
Nc1[nH]c(=O)nc2c1ncn2/C=C1/C[C@@H]1CO	>214 µM
Nc1ncnc2c1ncn2[C@@H]1C[C@@H](O)[C@H](CO)O1	23.1 µM
COC(=O)[C@H](C)NP(=O)(OC[C@@H]1C[C@]12C[C@@H]2n1cnc2c(N)ncnc21)Oc1ccccc1	7.6 µM
Nc1nc2c(ncn2[C@H]2C[C@]23C[C@@H]3CO)c(=O)[nH]1	>199 µM
Nc1ncnc2c1ncn2[C@@H]1C[C@@H](O)[C@H](CO)O1	23.1 µM
Nc1nc(NC2CC2)c2ncn(C=C3CC3CO)c2n1	>184 µM
Nc1nc2c(ncn2[C@H]2C[C@@]23C[C@@H]3CO)c(=O)[nH]1	>199 µM
COC(=O)C(C)NP(=O)(OC[C@H]1C/C1=C/n1cnc2c(N)nc(N)nc21)Oc1ccccc1	0.85 µM
Nc1nc2c(ncn2[C@H]2C[C@@]23C[C@H]3CO)c(=O)[nH]1	>199 µM
Nc1ncnc2c1ncn2/C=C1/C[C@H]1CO	124 µM
Nc1nc(NC2CC2)c2ncn(C=C3CC3CO)c2n1	>184 µM
COC(=O)[C@H](C)NP(=O)(OC[C@H]1C/C1=C\n1cnc2c(=O)[nH]c(N)nc21)Oc1ccccc1	>105 µM
Nc1ncnc2c1ncn2/C=C1/C[C@@H]1CO	12 µM
COC(=O)[C@H](C)NP(=O)(OC[C@@H]1C[C@]12C[C@@H]2n1cnc2c(N)ncnc21)Oc1ccccc1	7.6 µM
COC(=O)C(C)NP(=O)(OC[C@@H]1C/C1=C/n1cnc2c(N)nc(N)nc21)Oc1ccccc1	14 µM
Nc1nc(Cl)nc2c1ncn2/C=C1\CC1CO	>50 µM
COC(=O)[C@H](C)NP(=O)(OCC1C/C1=C/n1cnc2c(N)ncnc21)Oc1ccccc1	>108 µM

The last 2 rows once more:

structure,value
Nc1nc(Cl)nc2c1ncn2/C=C1\CC1CO,>50 µM
COC(=O)[C@H](C)NP(=O)(OCC1C/C1=C/n1cnc2c(N)ncnc21)Oc1ccccc1,>108 µM

Rows are shuffled and stem from different studies.